# Reference: PubChem BioAssay AID504761 (Drosophila RNAi Screening Center, 2011)
# Test: 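Fly genes whose silencing reduces dengue virus type 2 infection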 (primary screen)
# Cell system: D.Mel-2 cells from Drosophila
# Knock-down reagent: long dsRNA against Drosophila genes
# Challenge: infection with dengue virus type 2; dose and infection time not stated
# Detection: 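Per well on two replicate plates, imaging gave the percent of cells positive for viral envelope protein, ranked by infection, and a nuclear count of cells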
# Scale: infection score: higher = more virus-infected cells
# Active means: 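Very low infection ranking in both replicate wells (chance probability at most 0.065), then a retest showing infection dropped 1.5-fold or more at p below 0.05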
# Meaning of the calls: active = confirmed: knock-down lowers infection; inactive = not picked or not confirmed
# In all, the deposit lists about 22,000 reagents; shown is an unselected part of those that have a named target and a result. In the full data, 116 (0.52%) are marked active. 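Calls depend on retest data that are not deposited; infection was ranked per plate without normalising between plates; the unit of the infection score is not given.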 A number with no mark means an inactive call. The numbers tell different reagents against one gene apart. A plus sign joins genes that one reagent is predicted to hit. Not all columns of the deposit are shown. The record does not give: the amount of reagent, the time to read-out.
Target gene,dsRNA no.,"infection score, replicate 1","infection score, replicate 2"
EAChm,1,0.92,0.71
capu,1,5.98,2.77
capu,2,2.99,30.7
CG15382,1,5.67,10.4
CG15382,2,1.76,1.5
Indy,1,7.32,12.1
CG5246,1,2.09,6.45
CG5246,2,14.6,8.34
Or22a,1,2.12,9.16
Or22a,2,14.1,16.3
bma,1,6.71,5.73
bma,2,1.36,2.93
bma,3,7.29,6.14
CG31183,1,12.3,5.69
CG31183,2,7.3,6.65
CG17163,1,11.3,2.61
Brd8,1,1.31,2.29
Brd8,2,15.4,14.2
CG14626,1,7.04,9.64
CG14626,2,9.21,14
aqz,1,2.13,4.07
aqz,2,7.1,3.6
ATPsynG,1,2.27,1.73
CG31704,1,5.09,25.7
Nup160,1,11.4,6.94
Dpck,1,2.21,1.7
ecd,1,13.4,3.98
Gr58a,1,5.9,4.1
rho-7,1,6.59,10.5
Trc8,1,7.36,2.32
Trc8,2,3.83,0.58
Agpat2,1,2.57,15.9
Agpat2,2,13.4,5.1
Spn47C,1,3.58,3.62
Spn47C,2,1.63,6.53
IFT57,1,4.28,5.2
Cap-H2,1,17.5,14.2
Eph,1,6.51,8.67
Cyp4p3,1,13.1,6.34
Cyp4p3,2,4.73,39.5
PolE2,1,1.48,6.98
CG11999,1,5.98,13.3
CoRest,1,4.66,1.9
CoRest,2,4.08,2.92
CoRest,3,4.58,7.81
CoRest,4,5.76,10.3
p115,1,16.5,20.6
CG15772,1,2.36,1.34
CG15577,1,7.9,0.47
Patr-1,1,2.78,4.31
Patr-1,2,1.82,0.63
casp,1,12.9,21.6
CG33155 + mRpL53,1,3.5,4.56
CG33155 + mRpL53,2,34.6,
TSG101,1,1.65,3.94
CG31278,1,4.22,6.99
Arpc5,1,6.43,2.58
ND-23,1,25.3,12
CanA1,1,1.23,6.86
CanA1,2,2.55,2.81
CG8237,1,9.12,5.45
CG8237,2,1.52,15.4
PpD6,1,2.15,5.02
PpD6,2,1.27,4.68
CG3618,1,5.06,11.2
IntS10,1,0.9,1.15
Ass,1,16.8,13.5
chinmo,1,2.19,4.69
chinmo,2,7.65,5.16
chinmo,3,1.07,0.44
chinmo,4,16.9,
CG32109,1,2.43,4.18
CG33468,1,0.93,5.72
bru2,1,9.85,4.38
bru2,2,13.5,23.4
bru2,3,0.14,0.2
bru2,4,2.8,2.35

Copied from the list:
Agpat2 #1, infection score, replicate 2 → 15.9
Result for bru2 #2 under “infection score, replicate 1”: 13.5
Result for chinmo #2 in “infection score, replicate 1”: 7.65
Or22a #1, infection score, replicate 1 = 2.12
Entry of Patr-1 #1 under “infection score, replicate 2”: 4.31
